US20250283886A1

Columns and labels:
[1] = molecular target: … peptide containing N-terminal phenylalanine; test: table of pulse statistics of the single-molecule recognition experiment
[2] = molecular target: … peptide containing N-terminal phenylalanine; test: single-molecule recognition of immobilized peptide, 500 nM of each binder
[3] = molecular target: T1, … after VPr has further cut W and two alanine residues (N-terminal F); test: pulse duration histogram of interval F of sequencing run 1 (with VPr), n=61
[4] = molecular target: T1, … after VPr has further cut W and two …; test: pulse duration histogram of interval F of sequencing run 2 (with VPr), n=121
[5] = molecular target: polypeptide of sequence …; test: pulse duration histogram of interval Y of sequencing run 1 (with VPr), n=538
[6] = molecular target: T2, … after VPr has cut Y and two alanine residues (N-terminal W); test: pulse duration histogram of interval W of sequencing run 1 (with VPr), n=323
[7] = molecular target: T2, … after VPr has cut Y and two alanine …; test: pulse duration histogram of interval W of sequencing run 2 (with VPr), n=265
[8] = molecular target: polypeptide of sequence …; test: pulse duration histogram of interval Y of sequencing run 2 (with VPr), n=391

B1: at ClpS2-V1 (Agrobacterium tumifaciens ClpS2 variant 1) labeled with Cy3B (protein)
chain: MSDSPVDLKPKPKVKPKLERPKLYKVMLLNDDYTPMSFVTVVLKAVFRMSEDTGRRVMMTAHRFGSAVVVVCERDIAETKAKEATDLGKEAGFPLMFTTEPEE
In the case of B1, the N pulses [1] is reported as 169, the median pulse width [1] is reported as 0.35 s and the mean pulse duration [2] is reported as 1 s. For the same binder, the pulse rate [2] was 14.1 pulses/min.

B2: ATTO 542-labeled A. Tumefaciens ClpS2-V1, Q8UD95 1-103 (protein)
chain: B1 chain
With B2 the pulse duration M [3] was 1.65 s, the pulse duration Mo [3] was 1.94 s and the pulse duration µ [3] was 1.81 s. It also gave a pulse duration M [4] of 0.96 s, a pulse duration Mo [4] of 0.11 s and a pulse duration µ [4] of 1.17 s. It also gave a pulse duration M [5] of 0.26 s, a pulse duration Mo [5] of 0.04 s and a pulse duration µ [5] of 0.38 s. It also gave a pulse duration M [6] of 0.09 s, a pulse duration Mo [6] of 0.04 s and a pulse duration µ [6] of 0.11 s. For the same binder, the pulse duration M [7] was 0.09 s, the pulse duration Mo [7] was 0.04 s and the pulse duration µ [7] was 0.12 s. The pulse duration M [8] was 0.52 s, the pulse duration Mo [8] was 0.24 s and the pulse duration µ [8] was 0.74 s.
